The data set concerns activated sludge. The data set is described as follows: Biodegradability: degradation by microorganisms with degradation tester and closed system oxygen consumption meter. As to conditions: 14 days; 100 % = whole sample degraded into inorganic substances. As for the experimental part: The biodegradability of the derivatives was determined by checking the degree of degradation of those chemicals by microorganisms (procedures defined in Japanese domestic low for regulation of chemical substances and in OECD) with a degradation tester and closed system oxygen consumption meter. The test was continued for 14 days and the biodegradability data was calculated into percentage.
The 100-% degradability in the testing means that whole of a test sample has been degraded into inorganic substances such as carbon dioxide.
As to `CCCCCCCCCCCCCCCC(=O)OCC(O)C(O)C(O)C(O)C[N+](C)(C)C.[Cl-]` (stereo not drawn) [Monopalmitate derivative], the “Biodegradability (%)” value amounted to 36.7%.

On to `CCCCCCCCCCCCCCCCCC(=O)OCC(O)C(O)C(O)C(O)C[N+](C)(C)C.[I-]` (stereo not drawn) [Monostearate derivative], for which the “Biodegradability (%)” value is on record as 57.5%. For the compound `CCCCCCCCCCCC(=O)OCC(COC(=O)CCCCCCCCCCC)OC(=O)CCCCCCCCCCC` [Trilaurate], the “Biodegradability (%)” value worked out at 47.3%.

Values taken from patent publication US6359176B1, “Cationic surfactants, process for producing the same and utilization thereof” (Matsumoto Yushi-Seiyaku Co., Ltd., priority 1999, dated 2002).
